Measurements taken from patent US20040209239.

Protein sequences, listed by entry. Tags and fused reporters are not part of them. Lines headed by an entry give the natural chain unless they say otherwise; changes in a name come on top. Residues count along the entry.
UniProt Q15554, 43-542: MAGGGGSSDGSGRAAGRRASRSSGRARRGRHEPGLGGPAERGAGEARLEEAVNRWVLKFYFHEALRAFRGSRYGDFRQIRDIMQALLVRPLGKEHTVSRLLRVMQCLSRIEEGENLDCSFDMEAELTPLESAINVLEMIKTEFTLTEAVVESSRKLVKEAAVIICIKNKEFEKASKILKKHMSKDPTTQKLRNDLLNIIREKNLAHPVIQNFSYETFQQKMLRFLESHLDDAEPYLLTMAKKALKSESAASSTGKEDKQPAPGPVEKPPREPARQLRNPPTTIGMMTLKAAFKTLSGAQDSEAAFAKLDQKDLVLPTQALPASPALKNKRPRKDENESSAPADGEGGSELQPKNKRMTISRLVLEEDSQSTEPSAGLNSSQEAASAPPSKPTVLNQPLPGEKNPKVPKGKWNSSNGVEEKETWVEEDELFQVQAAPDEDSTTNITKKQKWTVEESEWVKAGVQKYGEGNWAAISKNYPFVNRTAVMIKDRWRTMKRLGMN
UniProt O95271: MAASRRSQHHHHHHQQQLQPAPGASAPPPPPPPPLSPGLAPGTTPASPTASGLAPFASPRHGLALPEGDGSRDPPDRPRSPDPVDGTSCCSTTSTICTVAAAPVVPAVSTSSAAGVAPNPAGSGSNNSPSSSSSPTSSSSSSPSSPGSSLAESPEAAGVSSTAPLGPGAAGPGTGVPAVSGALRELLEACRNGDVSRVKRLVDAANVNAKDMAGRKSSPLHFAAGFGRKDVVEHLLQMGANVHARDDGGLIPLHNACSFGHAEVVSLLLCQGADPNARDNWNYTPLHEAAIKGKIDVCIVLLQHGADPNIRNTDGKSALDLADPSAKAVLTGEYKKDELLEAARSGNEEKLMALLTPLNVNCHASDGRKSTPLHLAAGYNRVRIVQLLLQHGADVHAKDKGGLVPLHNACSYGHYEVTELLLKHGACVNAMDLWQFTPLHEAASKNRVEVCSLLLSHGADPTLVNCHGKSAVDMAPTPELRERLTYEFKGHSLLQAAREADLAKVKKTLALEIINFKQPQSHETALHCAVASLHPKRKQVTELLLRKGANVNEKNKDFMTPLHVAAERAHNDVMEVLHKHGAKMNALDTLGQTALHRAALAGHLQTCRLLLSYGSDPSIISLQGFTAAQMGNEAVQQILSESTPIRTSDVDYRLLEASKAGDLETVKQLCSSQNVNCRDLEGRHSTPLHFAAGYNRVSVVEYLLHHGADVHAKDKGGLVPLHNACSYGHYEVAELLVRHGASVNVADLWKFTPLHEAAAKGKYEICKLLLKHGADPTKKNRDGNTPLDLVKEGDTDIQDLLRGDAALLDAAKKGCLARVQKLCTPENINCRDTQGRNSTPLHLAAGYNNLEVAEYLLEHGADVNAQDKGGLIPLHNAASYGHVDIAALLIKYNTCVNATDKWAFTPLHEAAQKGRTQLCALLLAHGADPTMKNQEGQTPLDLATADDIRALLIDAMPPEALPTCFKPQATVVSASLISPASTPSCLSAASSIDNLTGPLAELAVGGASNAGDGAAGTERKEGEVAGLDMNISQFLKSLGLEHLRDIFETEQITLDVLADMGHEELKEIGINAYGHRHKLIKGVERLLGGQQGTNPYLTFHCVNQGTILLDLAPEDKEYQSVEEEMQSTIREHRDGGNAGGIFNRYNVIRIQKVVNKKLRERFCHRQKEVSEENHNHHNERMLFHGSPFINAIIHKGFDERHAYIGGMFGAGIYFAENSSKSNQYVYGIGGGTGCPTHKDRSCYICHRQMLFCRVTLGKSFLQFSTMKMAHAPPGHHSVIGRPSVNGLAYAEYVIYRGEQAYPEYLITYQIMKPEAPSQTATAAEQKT
UniProt P09874, 2-1014: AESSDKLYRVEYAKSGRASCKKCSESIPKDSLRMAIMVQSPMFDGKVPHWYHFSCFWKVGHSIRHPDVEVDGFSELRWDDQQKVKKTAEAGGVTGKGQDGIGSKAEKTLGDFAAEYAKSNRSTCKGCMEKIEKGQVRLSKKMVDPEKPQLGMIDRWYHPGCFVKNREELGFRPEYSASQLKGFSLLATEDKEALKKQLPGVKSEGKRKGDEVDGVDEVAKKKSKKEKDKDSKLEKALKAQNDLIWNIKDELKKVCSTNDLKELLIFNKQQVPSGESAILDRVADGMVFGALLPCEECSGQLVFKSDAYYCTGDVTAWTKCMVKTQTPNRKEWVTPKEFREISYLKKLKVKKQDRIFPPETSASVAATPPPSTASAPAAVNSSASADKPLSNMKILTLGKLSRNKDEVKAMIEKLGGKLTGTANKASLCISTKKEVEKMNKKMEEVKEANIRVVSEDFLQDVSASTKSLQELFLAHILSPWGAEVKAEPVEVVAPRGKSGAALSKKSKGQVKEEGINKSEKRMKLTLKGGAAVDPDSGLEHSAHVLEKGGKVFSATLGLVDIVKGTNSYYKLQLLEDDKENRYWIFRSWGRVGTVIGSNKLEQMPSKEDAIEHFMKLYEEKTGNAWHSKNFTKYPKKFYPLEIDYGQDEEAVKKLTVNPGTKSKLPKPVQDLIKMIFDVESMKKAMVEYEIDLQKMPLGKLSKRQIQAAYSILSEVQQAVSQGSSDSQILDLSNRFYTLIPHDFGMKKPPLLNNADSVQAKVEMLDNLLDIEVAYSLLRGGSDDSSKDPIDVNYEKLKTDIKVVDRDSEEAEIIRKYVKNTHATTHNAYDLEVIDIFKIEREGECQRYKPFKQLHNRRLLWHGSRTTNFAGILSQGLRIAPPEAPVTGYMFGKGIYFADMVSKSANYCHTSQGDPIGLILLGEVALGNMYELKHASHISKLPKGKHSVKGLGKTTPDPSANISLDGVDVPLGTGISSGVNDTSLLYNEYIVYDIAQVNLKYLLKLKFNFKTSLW

Legend:
[1] = molecular target: TRF2 (Raji cells) (Homo sapiens) (UniProt Q15554); experiment: binding assay; conditions: ChIP in Raji cells; lower efficiency than EBNA1; protein in cells
[2] = molecular target: Tankyrase (Raji cells) (Homo sapiens) (UniProt O95271); experiment: binding assay; conditions: ChIP in Raji cells; likely indirect; protein in cells
[3] = molecular target: T1, TRF1 (Raji cells) (Homo sapiens) (UniProt P54274); experiment: binding assay; conditions: ChIP in Raji cells; OriP, amplicon for this experiment not stated; protein in cells
T1 sequence (looked up, limits assumed): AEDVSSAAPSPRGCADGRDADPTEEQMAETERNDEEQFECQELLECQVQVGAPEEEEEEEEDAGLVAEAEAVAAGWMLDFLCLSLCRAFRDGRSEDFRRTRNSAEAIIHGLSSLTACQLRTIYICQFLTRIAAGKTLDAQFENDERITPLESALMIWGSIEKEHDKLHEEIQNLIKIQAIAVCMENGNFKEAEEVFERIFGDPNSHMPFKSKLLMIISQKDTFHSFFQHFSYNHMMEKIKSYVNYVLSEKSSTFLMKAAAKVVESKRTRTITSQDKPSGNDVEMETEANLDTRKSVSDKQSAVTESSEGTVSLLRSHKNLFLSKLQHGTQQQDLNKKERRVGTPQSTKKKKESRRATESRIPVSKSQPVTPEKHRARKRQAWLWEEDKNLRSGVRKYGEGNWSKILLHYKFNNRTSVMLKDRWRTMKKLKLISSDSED

[4] = molecular target: T2, hRAP1 (Raji cells) (Homo sapiens) (UniProt Q9NYB0); experiment: binding assay; conditions: ChIP in Raji cells; OriP, amplicon for this experiment not stated; protein in cells
T2 sequence (looked up, limits assumed): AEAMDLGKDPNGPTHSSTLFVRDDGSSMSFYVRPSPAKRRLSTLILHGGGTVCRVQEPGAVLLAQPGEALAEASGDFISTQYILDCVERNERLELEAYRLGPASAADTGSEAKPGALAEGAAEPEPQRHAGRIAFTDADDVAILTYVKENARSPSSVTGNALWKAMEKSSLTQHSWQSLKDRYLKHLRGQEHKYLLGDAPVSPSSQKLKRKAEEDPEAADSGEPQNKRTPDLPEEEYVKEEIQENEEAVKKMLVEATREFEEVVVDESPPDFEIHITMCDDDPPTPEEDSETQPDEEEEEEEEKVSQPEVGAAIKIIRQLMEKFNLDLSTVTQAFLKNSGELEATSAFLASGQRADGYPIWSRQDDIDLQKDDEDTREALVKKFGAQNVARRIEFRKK

[5] = molecular target: T3, EBNA1 (Raji cells) (Epstein-Barr virus) (UniProt P03211); experiment: binding assay; conditions: ChIP in Raji cells; protein in cells
T3 sequence (looked up, limits assumed): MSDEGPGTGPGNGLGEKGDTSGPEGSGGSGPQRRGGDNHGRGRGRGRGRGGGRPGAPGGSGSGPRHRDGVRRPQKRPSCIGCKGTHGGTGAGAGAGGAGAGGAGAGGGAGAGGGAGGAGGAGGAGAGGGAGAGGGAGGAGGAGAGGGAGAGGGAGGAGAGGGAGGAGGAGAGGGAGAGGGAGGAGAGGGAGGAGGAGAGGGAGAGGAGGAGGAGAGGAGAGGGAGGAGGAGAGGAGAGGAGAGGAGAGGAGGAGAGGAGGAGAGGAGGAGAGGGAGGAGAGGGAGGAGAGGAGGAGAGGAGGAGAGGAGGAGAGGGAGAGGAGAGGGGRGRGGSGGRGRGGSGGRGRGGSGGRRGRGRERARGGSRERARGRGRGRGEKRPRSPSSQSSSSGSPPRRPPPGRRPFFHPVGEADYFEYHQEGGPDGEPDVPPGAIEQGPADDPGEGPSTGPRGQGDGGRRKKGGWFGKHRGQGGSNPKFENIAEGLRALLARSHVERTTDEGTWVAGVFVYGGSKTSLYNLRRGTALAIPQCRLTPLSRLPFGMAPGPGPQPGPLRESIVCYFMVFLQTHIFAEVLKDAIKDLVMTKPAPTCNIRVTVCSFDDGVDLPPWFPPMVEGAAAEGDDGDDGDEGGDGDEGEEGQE

[6] = molecular target: TRF2 (nuclear extract) (Homo sapiens) (UniProt Q15554); experiment: pull-down; conditions: weak without EBNA1 (HeLa, low salt), stabilized by EBNA1; protein in an extract; protein details: GenBank id from MS/MS
PARP1 (Homo sapiens) = PARP1 (Homo sapiens) (UniProt P09874); experiment: pull-down; conditions: equal with or without EBNA1 in single round; protein in an extract; protein details: GenBank id from MS/MS
[7] = molecular target: T4, hRAP1 (TRF2-interacting telomeric RAP1) (Homo sapiens) (UniProt Q9NYB0); experiment: pull-down; conditions: SL1 and Raji extracts; interacts with TRF2; protein in an extract; protein details: GenBank id from MS/MS
T4 sequence (looked up, limits assumed): T2 sequence (looked up, limits assumed)

Tankyrase (Homo sapiens) = Tankyrase (Homo sapiens) (UniProt O95271); experiment: pull-down; conditions: only with EBNA1; stable to 300 mM KCl; likely indirect; protein in an extract; protein details: GenBank id from MS/MS
TRF1 (Homo sapiens) = molecular target: T5, TRF1 (Homo sapiens) (UniProt P54274); experiment: pull-down; conditions: EBNA1-dependent; SL1 and Raji extracts; protein in an extract
T5 sequence (looked up, limits assumed): T1 sequence (looked up, limits assumed)

[8] = molecular target: T6, EBNA1 (Epstein-Barr virus) (UniProt P03211); experiment: footprint; conditions: DNase I; four sites, induces hypersensitivity at nonamers; purified recombinant protein; protein details: baculovirus-expressed in SF9
T6 sequence (looked up, limits assumed): T3 sequence (looked up, limits assumed)

Measured: binding result

GAGATGGACATCCAGTCTTTACGGCTTGTCCCCACCCCATGGATTTCTATTGTTAAAGATATTCAGAATGTTTCATTCCTACACTAGTATTTATTGCCCAAGGGGTTTGTGAGGGTTATATTGGTGTCATAGCACAATGCCACCACTGAACCCCCCGTCCAAATTTTATTCTGGGGGCGTCACCTGAAACCTTGTTTTCGAGCACCTCACATACACCTTACTGTTCACAACTCAGCAGTTATTCTATTAGCTAAACGAAGGAGAATGAAGAAGCAGGCGAAGATTCAGGAGAGTTCACTGCCCGCTCCTTGATCTTCAGCCACTGCCCTTGTGACTAAAATGGTTCACTACCCTCGTGGAATCCTGACCCCATGTAAATAAAACCGTGACAGCTCATGGGGTGGGAGATATCGCTGTTCCTTAGGACCCTTTTACTAACCCTAATTCGATAGCATATGCTTCCCGTTGGGTAACATATGCTATTGAATTAGGGTTAGTCTGGATAGTATATACTACTACCCGGGAAGCATATGCTACCCGTTTAGGGTTAACAAGGGGGCCTTATAAACACTATTGCTAATGCCCTCTTGAGGGTCCGCTTATCGGTAGCTACACAGGCCC (double strand) [EBV oriP DS region ChIP amplicon (nt 8586-9206)]
binds: [1] | [2] | [3] | [4] | [5]

AACCCTAATTCGATAGCATATGCTTCCCGTTGGGTAACATATGCTATTGAATTAGGGTTAGTCTGGATAGTATATACTACTACCCGGGAAGCATATGCTACCCGTTTAGGGTTA (double strand) [EBV oriP Dyad Symmetry (DS) element]
binds: [6] | PARP1 (Homo sapiens) | [7] | Tankyrase (Homo sapiens) | TRF1 (Homo sapiens) | [8]

For some assays here: Protein sequences can lack the tags named with them. For some assays here: For at least one entry, the source does not settle the construct or the ends of the probe. For some assays here: At least one result comes from cells or an extract, where the contact may be indirect.
